The test system of series [1] is Host Cell Protein (HCP). Kind of series: HCP clearance, detergent wash on LambdaFabSelect column, HCP ELISA. On the set-up: species or system CHO. The conditions noted are these: for HCP: LambdaFabSelect eluate; for Normalized Eluate Yield: normalized to 0.5M NaCl wash control. (In general: An ELISA detects its analyte on a solid surface through an enzyme-linked reagent.)

For series [2], the system named is Host Cell Protein (HCP). Description: HCP clearance, detergent spiked into cell harvest material before LambdaFabSelect column, HCP ELISA. Also noted: species or system CHO.

Molecules are shown by their SMILES.

Turning to `CCCCCCCCCCCCOCCOCCOCCOCCOCCOCCOCCOCCOCCO` [Brij L9, 3,6,9,12,15,18,21,24,27-nonaoxanonatriacontan-1-ol], the HCP is given as 1924 ng/mg with Host Cell Protein (HCP) [1] (1% detergent wash); 1646 ng/mg with Host Cell Protein (HCP) [1] (2% detergent wash); 1105 ng/mg in the series on Host Cell Protein (HCP) [2] (2% detergent spike into cell harvest, LambdaFabSelect eluate). Further, the “Normalized Eluate Yield” value was found to be 1.00 in the series with Host Cell Protein (HCP) [1] (1% detergent wash); 1.01 with Host Cell Protein (HCP) [1] (2% detergent wash); 1.0 in the series with Host Cell Protein (HCP) [2] (2% detergent spike, normalized to no detergent spike control).

The record behind these values is patent US20240327454A1, “DETERGENT AND METHOD FOR PURIFYING A BIOTHERAPEUTIC” (MEDIMMUNE, LLC, priority 2020, published 2024).
